# Zika virus NS2B-NS3: effect of single substitutions on growth in cell culture

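Mutant virus pools were grown in human Huh-7.5 cells. Deep sequencing gave the change in frequency of each mutant relative to wild type, averaged over three replicate libraries (two for positions 207-308). The aim was to find sites where inhibitor-binding pockets cannot change.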

Protein: NS2B and the protease part of NS3 of Zika virus strain MR766. Positions count along the chain below; NS2B spans 2-131 and NS3 starts at 132.
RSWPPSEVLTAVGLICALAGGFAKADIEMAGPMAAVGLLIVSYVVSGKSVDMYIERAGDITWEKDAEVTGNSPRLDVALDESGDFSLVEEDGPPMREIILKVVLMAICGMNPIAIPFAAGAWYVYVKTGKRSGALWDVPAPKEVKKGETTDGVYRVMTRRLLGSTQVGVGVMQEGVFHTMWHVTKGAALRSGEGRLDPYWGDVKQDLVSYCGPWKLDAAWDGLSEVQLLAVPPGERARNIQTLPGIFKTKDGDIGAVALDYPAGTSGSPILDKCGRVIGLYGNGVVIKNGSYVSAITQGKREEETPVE

The number is log2 of the effect relative to wild type; negative values mean reduced growth, higher values better tolerance. Substitutions are written as wild-type residue, site number, new residue. All changes here are to lysine.

* G109K = -4.15
* M110K = -4.07
* N111K = -4.05
* P112K = -5.25
* I113K = -5.55
* A114K = -5.74
* I115K = -5.54
* P116K = -6.59
* F117K = -5.99
* A118K = -5.39
* A119K = -5.88
* G120K = -6.02
* A121K = -5.92
* W122K = -5.95
* Y123K = -5.45
* V124K = -3.80
* Y125K = -5.97
* V126K = -2.35
* T128K = -0.44
* G129K = -4.73
* R131K = -3.61
* S132K = -6.18
* G133K = -5.21
* A134K = -4.74
* L135K = -6.98
* W136K = -6.52
* D137K = -6.36
* V138K = -5.08
* P139K = -5.30
* A140K = -5.20
* P141K = -4.70
* E143K = -3.54
* V144K = -1.64
* G147K = -4.76
* E148K = -2.36
* T149K = -4.82
* T150K = -2.19
* D151K = -5.77
* G152K = -5.90
* V153K = -5.59
* Y154K = -5.46
* R155K = -5.39
* V156K = -5.65
* M157K = -2.95
* T158K = -4.73
* R159K = -1.42
* R160K = -2.15
* L161K = -4.73
* L162K = -4.96
* G163K = -4.21
* S164K = -1.59

A selection of 7 entries from above:

change,log2 effect
L135K,-6.98
R131K,-3.61
V124K,-3.80
D137K,-6.36
T149K,-4.82
V153K,-5.59
A121K,-5.92

The region was split into three libraries (1-103, 104-206, 207-308). Position 1 still belongs to NS2A. In the paper, -1 or higher counts as tolerated. Values above 0 are not proof of better growth: six high scorers were tested one by one, five grew less well than wild type and one about as well.

Reference: Ni et al. 2025, doi:10.1038/s41467-025-63602-z.